Human monoclonal antibodies against the spike receptor-binding domain (heavy:light variable regions). IC50 against pseudoviruses bearing the spike of naturally observed variants; lower = stronger; >10 µg/ml means not reached at the top dose. No active / inactive call. The stated detection limit is 0.0005 µg/ml; values near or below 0.001 µg/ml lie at the floor of the assay.

What all share (test): pseudovirus neutralization IC50; higher = weaker neutralization
In test [1] the target is SARS-CoV-2 Omicron BA.1 spike pseudovirus. The protocol:
(§1)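 Single-round VSV luciferase pseudovirus mixed with antibody dilutions for 1 h and put on Huh-7 cells for about a day; IC50 from the dose curve.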

Test [2] concerns the target SARS-CoV-2 Omicron BA.2 spike pseudovirus. The protocol: as §1
The target in test [3] is SARS-CoV-2 Omicron BA.2.75 spike pseudovirus. Here is the method: as §1
Test [4] addresses SARS-CoV-2 Omicron BA.5 spike pseudovirus. Here is the method:
as §1

Test [5] has as its target SARS-CoV-2 Omicron BQ.1.1 spike pseudovirus. The protocol:
as §1

The target of test [6] is SARS-CoV-2 Omicron XBB spike pseudovirus. The protocol: as §1
Test [7] concerns the target SARS-CoV-2 early D614G spike pseudovirus. Here is the method:
as §1

B1: BD56-1941 (protein)
chain 1: EVQLVESGGGLVQPGGSLRLSCAASGITVSSNYMTWVRQAPGKGLEWVSVIYAGGSTFYADSVKDRFTISRDNSKNTLYLQMKSLRAEDTAVYYCVRDLVIWGMDVWGPGTTVTVSS
chain 2: EILLTQSPSSLSASVGDRVTLTCRASQGINNNLAWYQQKSGKAPKLLIYGASTLQSGVPSRFSGSGSGTDFTLTISSLQPEDFATYYCQLLDSYPQTFGQGTKVEIK
For the molecule B1, the “pseudovirus neutralization IC50” value was 0.0771 µg/mL in test [1]; 0.0409 µg/mL in test [2]; 0.0677 µg/mL in test [3]; 0.0182 µg/mL in test [4]; 3.67 µg/mL in test [5]; 2.9 µg/mL in test [6]. Also, the “pseudovirus neutralization IC50” value in test [7] worked out at 0.00664 µg/mL.

B2: BD56-1926 (protein)
chain 1: QDQLVQSGAAVRKPGSSAKVSCKASGGTFSNYAISWVRQAPGLGLEWLGRTIPILDITNYAQKFQGRVTLTADKSTTTAYMELSSLRSDDTAVYYCARHLYDYGDYLLDYYVMDVWGQGTTVTVSS
chain 2: DIQMTQSPSTLSASVGDRVTITCRASQNINSWLAWYQQKPGKAPKLLIYKASTLESGVPSTFSGSGSGTEFTLTISSLQPDDFATYYCQQYNSSSPFGQGTKVEFK
For the molecule B2, the “pseudovirus neutralization IC50” value in test [1] came out at 0.0354 µg/mL; in test [2] it was 0.0476 µg/mL; in test [3], 0.0383 µg/mL; in test [4], 0.0208 µg/mL; in test [5], 0.105 µg/mL; in test [6], 0.124 µg/mL. The “pseudovirus neutralization IC50” value in test [7] worked out at 0.085 µg/mL.

B3: BD56-1918 (protein)
chain 1: QVQLVESGGGVVQPERSLRLSCAASGFTFSIYAMHWVRQTPGKGLEWVAVISKDGGYKSSADSVKGRFTISRDNSKGTLYLQMNSLRAEDTAVYYCAREAFGAYDYYFDYWGQGTLVTVSS
chain 2: DIQMTQSPSSLSASVGDRVTITCRASQGIRNSLAWYQQKPGKAPKLLLYAASTLESGVPSRFSGSGSGTDYTLTISSLQPEDFATYFCQQYYINPGNTFGQGTKLEIK
Take B3: the “pseudovirus neutralization IC50” value is 3.99 µg/mL in test [1]; 5.55 µg/mL in test [2]; over 10 µg/mL in test [3]; over 10 µg/mL in test [4]; over 10 µg/mL in test [5]; over 10 µg/mL in test [6]. In addition, in test [7], the “pseudovirus neutralization IC50” value was 1.77 µg/mL.

B4: BD56-1896 (protein)
chain 1: EVQLVESGGGLVQPGGSLRLSCAASGFIFSDYEMNWVRQAQGKGLEWISYISTSGGATNYADSVKGRFTISRDNAKNSLYLQMNSLGAEDTAIYYCARAIYGSGSSTSDCWGQGTLVTVSS
chain 2: DIQMTQSPSSLSASVGDRVTITCRASQNMNNFLNWYQQKPGKAPKLLIYATSTLQSGVPSRFSGSGSGTDFTLTISNLQPEDFATYYCQQSYSLPVTFGQGTRLEIK
As to B4, the “pseudovirus neutralization IC50” value in test [1] is 0.00217 µg/mL; in test [2], 0.00172 µg/mL; in test [3], 0.00344 µg/mL; in test [4] it was over 10 µg/mL; in test [5], over 10 µg/mL; in test [6] it was over 10 µg/mL. The “pseudovirus neutralization IC50” value in test [7] was 0.00414 µg/mL.

B5: BD56-1929 (protein)
chain 1: QLQLQESGPGLLKPSETLSLTCTVSGGSINTNNFYWGWIRQPPGKGLEWIGNMYYSGTTHFNPSLKSRVTTSVDTSKKQFSLKLTSVTAADTAVYFCARGTTYFDRRGSRVSDPFDRWGQGTLVIVSS
chain 2: DIQMTQSPSTLSASVGDRVTITCRASQNISTWLAWYQQKPGKAPNLLIYGASDLESGVPSRFSGSGSGTAFTLTISSLQPDDFVTYYCQHYNGYFWTFGQGTKVEIK
Turning to B5, the “pseudovirus neutralization IC50” value in test [1], in test [2], in test [3], in test [4], in test [5] and in test [6] was over 10 µg/mL in each case. The “pseudovirus neutralization IC50” value in test [7] turned out to be 0.0269 µg/mL.

B6: BD56-1894 (protein)
chain 1: QITLKESGPTLVRPTQTLTLTCNFSGFSFISSGVGVAWIRQPPGKALEWLGIIYWDGDKRYSPALKTRLTITKETYENQVVLRMTNMDPVDTATYFCAHLVGGVWGFDPWGQGTLVTVSS
chain 2: QSVLTQPPSASGTPGQRVTISCSGSSSNIGINYVCWYRQLPGTAPKLLIYSNDQRPSGVPDRFSGSKSGTSVSLAISGLRSEDEADYYCAAWDDSRSDWVFGGGTKLTVL
B6: the “pseudovirus neutralization IC50” value in test [1] turned out to be 0.00112 µg/mL; in test [2], 0.00083 µg/mL; in test [3] it was 0.00121 µg/mL; in test [4] it was 0.000649 µg/mL; in test [5], 0.444 µg/mL; in test [6], 0.758 µg/mL. Moreover, the “pseudovirus neutralization IC50” value in test [7] stood at 0.0056 µg/mL.

B7: BD56-1902 (protein)
chain 1: DVQLVESGGGLVQPGGSLKLSCAASGFTFSGSAMHWVRQASGKGLEWVGRVRSILHSYATAYSASLKGRFTISRDDSKNTAYLEMNSLEIEDTAVYFCCMSGYSGYDELDVWGQGTMVTVSS
chain 2: DIQMTQSPSSLSASVGDRVTITCRASHTISNYLHWYQKKPGKAPKLLIYAASSLQSGVPSRFSGGGSGTDFTLTISSLQLEDFATYFCQQSYSTPFTFGPGTTVDIK
On to B7, for which the “pseudovirus neutralization IC50” value in test [1], in test [2], in test [3], in test [4], in test [5] and in test [6] was over 10 µg/mL throughout. In test [7], the “pseudovirus neutralization IC50” value came to 0.131 µg/mL.

B8: BD56-1944 (protein)
chain 1: EVQLVESGGGLVQPGGSLRLSCAASGFTVSSNYMNWVRQAPGKGLEWVSVVYTGVSAYYADSVKGRFTISRDYSKNTLYLQMDSLRVEDTAVYYCARVWYCGSDCEAFDIWGQGTMVTVSS
chain 2: QSVLTQPPSVSGAPGQRVSISCTGSSSNIEAGYDVNWYQQLPGTAPKLLIYGDSNRPSGVPDRFSGSKSGTSASLAITGLQAEDEADYYCQSYDNSLRGSVFGGGTKLTVL
In the case of B8, the “pseudovirus neutralization IC50” value in test [1] was 0.111 µg/mL; in test [2], 0.204 µg/mL; in test [3], 0.0838 µg/mL; in test [4], over 10 µg/mL; in test [5] it was over 10 µg/mL; in test [6], over 10 µg/mL. The “pseudovirus neutralization IC50” value in test [7] was 0.000668 µg/mL.

B9: BD56-1923 (protein)
chain 1: QVRLQESGPGLVKPSGTLSLTCAVSGGSLNTPNWWSWVRQPPGKGLEWIGEIHHSGNTNYNPSLKTRVTISVDKSKNEISLKLNSVTAADTAMFYCTRDRGGVGDGFDMWGQGTMVTVSS
chain 2: QSALTQPASVSGSPGQSITISCTGTSSDVGAYKYVSWYQQHPGKAPKLIIYDVSDRPSGISHRFSGSKSGNTASLTISGLQPEDEADYYCNSYTSISTRVFGSGTKVTVL
Take B9: the “pseudovirus neutralization IC50” value in test [1] is over 10 µg/mL; in test [2], 0.104 µg/mL; in test [3], over 10 µg/mL; in test [4] it was 0.0402 µg/mL; in test [5] it was over 10 µg/mL; in test [6] it was over 10 µg/mL. Also, in test [7], the “pseudovirus neutralization IC50” value amounted to 0.0109 µg/mL.

B10: BD56-1903 (protein)
chain 1: QVQLVQSGAEVKKPGSSVKVSCEASGDTFSKYAINWVRQTPGQGLEWMGRIIPMFDISNYAQKFQGRLTLTADKSTSTAYMELSGLISNDAAIYYCATSAYQYNSDGYFLQYWGQGTLVTVSS
chain 2: EIVLAQSPGTLSLSPGERATLSCRASQNINSNFLAWYQQRPGQAPRLLIYGASSRATGIPDRFSGSGSGTEFTLTISRLESEDFAVYYCHQYHSSPRTFGQGTKVEIK
Consider B10, for which the “pseudovirus neutralization IC50” value in test [1] was 0.0124 µg/mL; in test [2], 0.0159 µg/mL; in test [3] it was 0.00222 µg/mL; in test [4], over 10 µg/mL; in test [5], over 10 µg/mL; in test [6], over 10 µg/mL. Also, the “pseudovirus neutralization IC50” value in test [7] was 0.00214 µg/mL.

B11: BD56-1924 (protein)
chain 1: QVQLVQSGAEVKPPGASVKVSCKASGYTFTGYYMFWVRQAPGQGLEWMGRINPNSGGTNYAQKFQGRVTMTRDTSISTAYMELSRLRSDDTAVYYCARELGRSVIAWYGGLEDYWGQGTLVTVSS
chain 2: EIVMTQSPATLSVSPGERATLSCRASQSVSINLAWYQQKPGQAPRLLIYGAATRATGIPGRFSGSGSGTEFTLTISSLQSEDFAVYYCLQYNDRPPWTFGQGTKVEIK
Consider B11, for which the “pseudovirus neutralization IC50” value in test [1] was 1.53 µg/mL; in test [2], 2.22 µg/mL; in test [3], 1.2 µg/mL; in test [4], over 10 µg/mL; in test [5], over 10 µg/mL; in test [6], over 10 µg/mL. The “pseudovirus neutralization IC50” value in test [7] was 0.00156 µg/mL.

B12: BD56-1916 (protein)
chain 1: EVQLVESGGGLVQPGGSLRLSCAASGFIVSSNYMSWVRQAPGKGLEWVSVIYAGGSTFYADSVKGRFTISRDNSKNMLYLQLNSLRAEDTAVYYCARDYGDFYFDFWGQGTLVTVSS
chain 2: DIQMTQSPSSLSASVGDRVTITCRASQGISNSLAWYQQKPGNAPKLLLYAASTLETGVPSRFRGSGSGTDYTLTISSLQPEDFATYYCQQYYNTPRTFGGGTKVEIK
In the case of B12, the “pseudovirus neutralization IC50” value in test [1], in test [2], in test [3], in test [4], in test [5] and in test [6] was over 10 µg/mL each time. Also, the “pseudovirus neutralization IC50” value in test [7] came to 0.0267 µg/mL.

B13: BD57-0102 (protein)
chain 1: EVHLVESGGGLVQPGRSLRLSCAASGFTFDDYAMHWVRQAPGKGLEWVSGISWNSGGIAYADSVRGRFTISRDSAKNSLYLQMNSLRPEDTAFYYCAKDIGAGHGDYFDFWGQGTLVTVSS
chain 2: SYVLTQPPSVSVAPGMTARITCGGDQIGSKSVHWYQQKPGQAPVLVVYYDSDRPSGIPDRFSGSNSGNTATLTISRVEAGDEADYYCQVWGSSSDHPYVFGGGTKVTVL
Take B13: the “pseudovirus neutralization IC50” value in test [1] was 2.6 µg/mL; in test [2] it was 4.86 µg/mL; in test [3], 4.47 µg/mL; in test [4], 4.68 µg/mL; in test [5], over 10 µg/mL; in test [6] it was 4.85 µg/mL. Also, the “pseudovirus neutralization IC50” value in test [7] is over 10 µg/mL.
